Experimental data published in article PMC3334931, “Characterization of the Single Stranded DNA Binding Protein SsbB Encoded in the Gonoccocal Genetic Island” (PLoS ONE, 2012).

Legend:
[1] = molecular target: T1, SsbB (native) (Neisseria gonorrhoeae MS11) (UniProt Q5EP75); experiment: EMSA (Coomassie); conditions: 1 uM tetramer, EMSA: SBA buffer (10 mM NaOH, 2 mM EDTA, boric acid to pH 7.5), optional 10 mM MgCl2 and/or NaCl up to 500 mM, 4 C 15 min, recombinant protein, residues 1-143, single-stranded DNA
T1 sequence (looked up): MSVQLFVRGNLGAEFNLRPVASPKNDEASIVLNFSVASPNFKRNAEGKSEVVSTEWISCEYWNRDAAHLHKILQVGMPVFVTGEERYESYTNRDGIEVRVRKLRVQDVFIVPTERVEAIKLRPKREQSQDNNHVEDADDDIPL

[2] = molecular target: T2, OneSTrEP-SsbB (Neisseria gonorrhoeae MS11) (UniProt Q5EP75); experiment: EMSA; conditions: no difference from native; EMSA: SBA buffer (10 mM NaOH, 2 mM EDTA, boric acid to pH 7.5), optional 10 mM MgCl2 and/or NaCl up to 500 mM, 4 C 15 min; recombinant protein; residues 1-143; protein details: N-terminal OneSTrEP; label: 5' Cy3; single-stranded DNA
T2 sequence (looked up): T1 sequence (looked up)

[3] = molecular target: T3, His-SsbB (Neisseria gonorrhoeae MS11) (UniProt Q5EP75); experiment: EMSA; conditions: lower affinity than native; EMSA: SBA buffer (10 mM NaOH, 2 mM EDTA, boric acid to pH 7.5), optional 10 mM MgCl2 and/or NaCl up to 500 mM, 4 C 15 min; recombinant protein; residues 1-143; protein details: N-terminal 10xHis; label: 5' Cy3; single-stranded DNA
T3 sequence (looked up): T1 sequence (looked up)

Sequence: TTTTTTTTTTTTTTTTTTTTTTTTTTTTTTTTTTT [dT35]
- binding result ([1]; 5 uM oligo): binds

Sequence: TTTTTTTTTTTTTTTTTTTTTTTTTTTTTTTTTTTTTTTTTTTTTTTTTTTTTTTTTTTTTTTTTTTTTTTTTT [dT74]
- binding result ([1]; 0.25 uM oligo, two tetramers bound): binds

Sequence: TTTTTTTTTTTTTTTTTTTTTTTTTTTTTTTTTTTTTTTTTTTTTTTTTTTTTTTTTTTTTTTTTTT [dT67]
- binding result ([1]; 0.25 uM oligo, one tetramer bound): binds

Sequence: TTTTTTTTTTTTTTTTTTTTTTTTTTTTTTTTTTT [Cy3-dT35]
- binding result [2]: binds
- binding result [3]: binds more weakly

For at least one entry, the source does not settle the construct or the ends of the probe. For some assays here: The comparison behind a weaker result is the experiment's own reference, which may not be listed here. At least one verdict was read from the data and is not stated in words by the source. Tags and fusion partners may be left off the protein sequences shown.
